The target of the assay is human angiotensin converting enzyme-2 peptidase domain (human) (UniProt Q9BYF1). The assay is described as follows: BLI. In general terms: BLI is a label-free optical method that tracks binding on a fibre tip over time.

Broadly, the Kd is a measure of binding affinity in units of concentration. A low value points to a tighter complex. “WT (ancestral strain) receptor binding domain (RBD) (from UniProt P0DTC2 327-528) (domain or fragment; other documents disagree on this pair)”: the Kd is 31.3 nM.

The record behind these values is PMC11579292.
